Results from the supplement of paper PMC12637763.
This is one part of the list. Env chains of viruses from a treatment-interruption trial, translated from the printed DNA. IC50 / IC80 of two broadly neutralizing antibodies; lower = more sensitive virus; >50 µg/ml means not reached and <0.001 µg/ml is below the lowest dose. No active / inactive call.

Key:
antibody 10-1074 [1] = experiment: neutralization IC50; higher = virus less sensitive to the antibody
Experimental: (§1)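 Pseudovirus bearing the Env chain mixed with antibody, from 50 µg/ml in fivefold dilutions, on TZM-bl reporter cells, in duplicate.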

antibody 3BNC117 [2] = experiment: as above
Experimental: as §1

antibody 10-1074 [3] = experiment: neutralization IC80; higher = virus less sensitive to the antibody
Experimental: as §1

antibody 3BNC117 [4] = experiment: as above
Experimental: as §1

Row | Binder | neutralization IC50 (antibody 10-1074 [1]) [µg/mL] | neutralization IC50 (antibody 3BNC117 [2]) [µg/mL] | neutralization IC80 (antibody 10-1074 [3]) [µg/mL] | neutralization IC80 (antibody 3BNC117 [4]) [µg/mL]
1 | HIV-1 Env, rebound clone, placebo arm (protein) MRVMGTQRNYPLLWNWVMTIFWMIIIGNANQLWVTVYYGVPVWKEAETTLFCASDAKAYDTEVHNVWATHACVPTDPDPREIPLENVTEKFNIWKNDMVEQMHQDIISLWDQSLKPCVKLTPLCVTLHCTNATAINATVGNSTDMKNCSFNVTTIRRDKMQKEYALFYNLDIVQIDNSDSYRLVSCNTSVITQACPKVSFEPIPIHYCAPAGFAIIKCNNKTFNGTGPCTNVSTVQCTHGIKPVVSTQLLLNGSLAEEKIMIRSENITNSAKTIIVQLKKSVTINCTRPGNNTRKSIRIGPGQTYYATGAIIGDIRQAHCNVSKKEWMDTLQEVAKQLGEHFISAQNISFNSSSGGDVEITTHSFICGGEFFYCNTTGLFNSTWIKNNTGINNDTWTIYNESSSNWTGTITLQCRIKQYVNLWQRVGRAMYAPPIRGDINCTSNITGLLLTRDGGGNKESQTFRPIGGDMRDNWRSELYKYKVVKIEPLGVAPTYAKRRVVGREKRAVGLGAVFLGFLGAAGSTMGAASITLTVQARQLLSGIVQQQSNLLQAIEAQQHLLRLTVWGIKQLQARVLALERYLRDQQLLGIWGCSGKLICPTTVPWNSSWSNKTVNEIWDNMTWLQWDKEISNYTETIYALIEQSQNQQEKNEQDLLALDKWANLWNWFDITKWLWYIKIFIMIVGGLIGLRIVFAVFSLVNRVRQGYSPLSFQILTHRQREPDRPGRIEEEGGEQDRDRSVRLVSGFLALAWDDLRSLCLFLYHRLRDFVLIATRGVELLGHSILKGLRLGWEALKHLWNLLSYWSQELKNSAISLFDTIAIAVANWTDRIIELGQAAGRAILHIPRRIRQGLERALL | 0.001 | 0.074 | 0.005 | 0.549
2 | HIV-1 Env, rebound clone, placebo arm (protein) MRVMGTQRNYPLLWNWVMTIFWMIIIGNANQLWVTVYYGVPVWKEAETTLFCASDAKAYDTEVHNVWATHACVPTDPDPREIPLENVTEKFNIWKNDMVEQMHQDIISLWDQSLKPCVKLTPLCVTLHCTNATAINATVGNSTDMKNCSFNVTTIRRDKMQKEYALFYNLDIVQIDNSDSYRLVSCNTSVITQACPKVSFEPIPIHYCAPAGFAIIKCNNKTFNGTGPCTNVSTVQCTHGIKPVVSTQLLLNGSLAEEKIMIRSENITNSAKTIIVQLKKSVTINCTRPGNNTRKSIRIGPGQTYYATGAIIGDIRQAHCNVSKKEWMDTLQEVAKQLGEHFISAQNISFNSSSGGDVEITTHSFIRGGEFFYCNTTGLFNSTWIKNNTGINNDTWTIYNESSSNWTGTITLQCRIKQYVNLWQRVGRAMYAPPIRGDINCTSNITGLLLTRDGGGNKESQTFRPIGGDMRDNWRSELYKYKVVKIEPLGVAPTYAKRRVVGREKRAVGLGAVFLGFLGAAGSTMGAASITLTVQARQLLSGIVQQQSNLLQAIEAQQHLLRLTVWGIKQLQARVLALERYLRDQQLLGIWGCSGKLICPTTVPWNSSWSNKTVNEIWDNMTWLQWDKEISNYTETIYALIEQSQNQQEKNEQDLLALDKWANLWNWFDITKWLWYIKIFIMIVGGLIGLRIVFAVFSLVNRVRQGYSPLSFQILTHRQREPDRPGRIEEEGGEQDRDRSVRLVSGFLALAWDDLRSLCLFLYHRLRDFVLIATRGVELLGHSILKGLRLGWEALKHLWNLLSYWSQELKNSAISLFDTIAIAVANWTDRIIELGQAAGRAILHIPRRIRQGLERALL | 0.001 | 0.137 | 0.01 | 1.89
3 | HIV-1 Env, rebound clone, placebo arm (protein) MRVMGTQRNYPRFWNWVMIIFWMIIIGNANQLWVTVYYGVPVWKEAETTLFCASDAKAYDTEVHNVWATHACVPTDPDPREIPLENVTEKFNIWKNDMVEQMHQDIISLWDQSLKPCVKLTPLCVTLNCTNINATGSIVGNSTDMKNCSFNVTTIRRDKMQKEYALFYNLDIVQIDNSDNSSYRLVSCNTSVITQACPKVSFEPIPIHYCAPAGFAIIKCNNKTFNGTGPCTNVSTVQCTHGIKPVVSTQLLLNGSLAEEKIMIRSENITNSAKTIIVQLNESVTINCTRPGNNTRKSIRIGPGQTYYATGAIIGDIRQAHCNVSKEKWMSTLQKVAKQLGEHFISAQNISFNSSSGGDVEITTHSFICGGEFFYCNTTGLFNSTWMIRNNTYNENSSNESGTITLQCRIKQYVNLWQRVGRAMYAPPIRGDINCTSNITGLLLTRDGGGNNESETFRPIGGDMRDNWRSELYKYKVVKIEPLGVAPTYAKRRVVGREKRAVGLGAVFLGFLGAAGSTMGAASITLTVQARQLLSGIVQQQSNLLKAIEAQQHLLRLTVWGIKQLQARVLALERYLRDQQLLGIWGCSGKLICPTTVPWNSSWSNKTFNEIWDNMTWLQWDKEISNYTETIYALIEQSQNQQEKNEQDLLALDKWANLWNWFDITKWLWYIKIFIMIVGGLIGLRIVFAVFSLVNRVRQGYSPLSFQILTHRQREPDRPGRIEEEGGEQDRDRSVRLVSGFLALAWDDLRSLCLFLYHRLRDSVLIATRGVELLGHSILKGLRLGWEALKHLWNLLSYWSQELKNSAISLFDTIAIAVANWTDRAIELGQAAGRAILHIPRRIRQGLERALL | 0.002 | 3.71 | 0.008 | > 50
4 | HIV-1 Env, rebound clone, placebo arm (protein) MRVMGTQRNYPRFWNWVMIIFWMIIIGNANQLWVTVYYGVPVWKEAETTLFCASDAKAYDTEVHNVWATHACVPTDPDPRETPLENVTEKFNIWKNDMVEQMHQDIISLWDQSLKPCVKLTPLCVTLNCTNINATGSIVGNSTDMKNCSFNVTTIRRDKMQKEYALFYNLDIVQIDNSDNSSYRLVSCNTSVITQACPKVSFEPIPIHYCAPAGFAIIKCNNKTFNGTGPCTNVSTVQCTHGIKPVVSTQLLLNGSLAEEKIMIRSENITNSAKTIIVQLNESVTINCTRPGNNTRKSIRIGPGQTYYATGAIIGDIRQAHCNVSKEKWMSTLQKVAKQLGEHFISAQNISFNSSSGGDVEITTHSFICGGEFFYCNTTGLFNSTWMIRNNTYNENSSNESGTITLQCRIKQYVNLWQRVGRAMYAPPIRGDINCTSNITGLLLTRDGGGNNESETFRPIGGDMRDNWRSELYKYKVVKIEPLGVAPTYAKRRVVGREKRAVGLGAVFLGFLGAAGSTMGAASITLTVQARQLLSGIVQQQSNLLKAIEAQQHLLRLTVWGIKQLQARVLALERYLRDQQLLGIWGCSGKLICPTTVPWNSSWSNKTFNEIWDNMTWLQWDKEISNYTETIYALIEQSQNQQEKNEQDLLALDKWANLWNWFDITKWLWYIKIFIMIVGGLIGLRIVFAVFSLVNRVRQGYSPLSFQILTHRQREPDRPGRIEEEGGEQDRDRSVRLVSGFLALAWDDLRSLCLFLYHRLRDSVLIATRGVELLGHSILKGLRLGWEALKHLWNLLSYWSQELKNSAISLFDTIAIAVANWTDRAIELGQAAGRAILHIPRRIRQGLERALL | 0.003 | 2.25 | 0.013 | 43.3
5 | HIV-1 Env, rebound clone, antibody arm (protein) MKVKGIRKNYQHLWKWDTMLTMLLGMIMICSAVGNLWVTVYYGVPVWKDASTTLFCASDAKGYETEVHNVWATHACVPTDPSPQELVLENVTEDFNMWENNMVEQMQEDIISLWDQSLKPCVQLTPLCVTLNCTNIASGSINNSSTTGNISNSNDMKNCSFNISSGIQDRVKKDYAYFYNLDIVQITDDNSSNSYRLINCNTSVITQACPKVSFEPIPIHYCTPAGFAILKCNDKKFNGTGTCKNVSTVQCTHGIKPVVSTQLLLNGSLAEEEIVIRSENFTNNGKNIIVQLKEAVEINCTRVGNNTRKSIHMGPGRAFYANGDIIRNIRLAHCNISKARWNNTLRQIAIKLKEQYNNSKTINFTKSSGGDLEITTHMFNCGGEFFFCNTTQLFNSTWNNSTWNDTGNWNDTDETITLPCKIKQIINMWQRAGRAMYAPPISGNISCSSKITGLLLTRDGGNDNESQETKEVFRPGGGDMRDNWRSELYKYKVVKIEPLGVAPTKAKRRVVQREKRAVGLGALFLGFLGAAGSTMGAASITLTAQARQLMSGIVQQQNNLLKAIEAQQHLLQLTVWGIKQLQARVLAVERYLKDQQLLGIWGCSGKLICTTAVPWNTSWSNKSYDEIWEKMTWMQWEREIDNYTGIIYTLIHESQNQQDKNEQDLLALDHWASLWNWFDISNWLWYIRLFIMIVGGLVGLRIVFAVLSIVNRIRQGYSPISLQTPLPAQREPDRPGGIEEEGGERDRGRSTRLVHGSLALIWSDLSSLCIFSYHRLRDLLLIAARIVEILGRRGWELLKYWWNLLQYWSQELKNSAVSLLDAVAIAIAEGTDRVIEAAQRAWRRIRQGSEGVLL | > 50 | > 50 | > 50 | > 50
6 | HIV-1 Env, rebound clone, antibody arm (protein) MKVKGIRKNYQHLWRRDTMLTMLLGMIMICSAVGNLWVTVYYGVPVWKDASTTLFCASDAKGYETEVHNVWATHACVPTDPSPQELVLENVTEDFNMWENNMVEQMQEDIISLWDQSLKPCVQLTPLCVTLNCTNIASGSINSSSTNGNISNSNDMKNCSFNISSGIQDRVKKDYAYFYNLDIVQITDDNSSNSYRLINCNTSVITQACPKVSFEPIPIHYCTPAGFAILKCNDKKFNGTGTCKNVSTVQCTHGIKPVVSTQLLLNGSLAEEEIVIRSENFTNNGKNIIVQLKEAVEINCTRVGNNTRKSIHMGPGRAFYANGDIIRNIRLAHCNISKARWNNTLRQIAIKLKEQYNNSKTIKFTKSSGGDLEITTHMFNCGGEFFFCNTTQLFNSTWNNSTWNDTGNWNDTDETITLPCKIKQIINMWQRAGRAMYAPPISGNISCSSKITGLLLTRDGGNDNESQGTKEVFRPGGGDMRDNWRSELYKYKVVKIEPLGVAPTKAKRRVVQREKRAVGLGALFLGFLGAAGSTMGAASITLTAQARQLMSGIVQQQNNLLKAIEAQQHLLQLTVWGIKQLQARVLAVERYLKDQQLLGIWGCSGKLICTTAVPWNTSWSNKSYDEIWEKMTWMQWEREIDNYTGIIYTLIHESQNQQDKNEQDLLALDHWASLWNWFDISNWLWYIRLFIMIVGGLVGLRIVFAVLSIVNRIRQGYSPISLQTPLPAQREPDRPGGIEEEGGERDRGRSTRLVHGSLALIWSDLSSLCIFSYHRLRDLLLIAARIVEILGRRGWELLKYWWNLLQYWSQELKNSAVSLLDAVAIAIAEGTDRVIEAAQRAWRRIRQGSEGVLL | > 50 | > 50 | > 50 | > 50
